Measured values from several laboratories, pooled; numbers as filed in NIAID ChemDB.

All rows: growth or infection tests; organism: Hepatitis B virus; cells: HepG2 2.2.15; endpoint: EC50

Blank or dashed fields: not listed here. Conditions beyond the fields shown may differ between rows. ECn: concentration that inhibits the pathogen or its effect by n%. Two numbers with a dash give a range or band.

compound	strain	read by	result
COc1cc2c(c(C)c1OC)CC=C1[C@@]2(C)CC[C@@]2(C)[C@@H]3C[C@](C)(CO)CC[C@]3(C)CC[C@]12C	-	ELISA / antigen	68.4 µM
Nc1ncnc2c1ncn2C[C@@H](CF)OCP(=O)(O)O	-	hybridisation	1.2 µM
Nc1nc2c(ncn2[C@H]2CC[C@@H](CO)O2)c(=O)[nH]1	-	-	10 µM
COC(=O)[C@]1(C)CC[C@]2(C)CC[C@]3(C)C4=CCc5c(cc(OC)c(OC)c5C)[C@]4(C)CC[C@@]3(C)[C@@H]2C1	-	ELISA / antigen	91 µM
Nc1ccn([C@@H]2C=C(F)[C@H](CO)O2)c(=O)n1	-	-	0.002 µM
CC1=C(O)C(=O)C=C2C1=CC=C1[C@@]2(C)CC[C@@]2(C)[C@@H]3C[C@](C)(C(=O)N4CCOCC4)CC[C@]3(C)CC[C@]12C	-	ELISA / antigen	14.6 µM
Cc1cn([C@H]2C=C[C@@H](CO)O2)c(=O)[nH]c1=O	-	-	>100 µM
Cc1c(-c2cnccn2)ssc1=S	-	-	<50 µM
CCOC(=O)C1=C(CN2CCO[C@H]3CN(CC(C)(C)C(=O)O)C[C@H]32)NC(c2nccs2)=N[C@H]1c1cccc(F)c1C	Genotype D ayw3	PCR	0.081 µM
C=C1[C@H](CO)[C@@H](O)C[C@@H]1n1cnc2c(=O)[nH]c(N)nc21	Genotype D	PCR	0.0018 µM
CCC(CCC(C)C1CCC2C3C[C@@H](O)[C@@]4(O)C[C@@H](O)CCC4(C)C3CCC12C)C(C)C	-	antigen	>100 µg/mL
Nc1ncnc2c1ncn2CCOCP(=O)(O)O	-	-	1.3 µM
Cc1cn([C@H]2C[C@H](N=[N+]=[N-])[C@@H](CO)O2)c(=O)[nH]c1=O	-	-	>100 µM
COC(=O)[C@]1(C)CC[C@]2(C)CC[C@]3(C)C4=CC=C5C(=CC(=O)C(O)=C5C)[C@]4(C)CC[C@@]3(C)[C@@H]2C1	-	ELISA / antigen	19.4 µM
Nc1ccn([C@H]2CC[C@@H](CO)O2)c(=O)n1	-	-	100 µM
CC1=C(O)C(=O)C=C2C1=CC=C1[C@@]2(C)CC[C@@]2(C)[C@@H]3C[C@](C)(C(=O)N(C)C)CC[C@]3(C)CC[C@]12C	-	ELISA / antigen	13.1 µM
COc1cc(NC(=O)Nc2cccc(CNC(=O)O[C@H]3CCOC3)c2)ccc1-c1cnco1	-	PCR	0.4 µM
CC1(C)OCC(CCCCN2C[C@H](O)[C@@H](O)[C@H](O)[C@H]2CO)O1	-	-	>100 µM
CC1=C(O)C(=O)C=C2C1=CC=C1[C@@]2(C)CC[C@@]2(C)[C@@H]3C[C@](C)(C(=O)OCc4ccc(C)cc4)CC[C@]3(C)CC[C@]12C	-	ELISA / antigen	10 µM
OC[C@@H]1[C@@H](O)[C@H](O)[C@@H](O)CN1CCCCC1CCCCC1	-	-	30 µM
CC1=C(O)C(=O)C=C2C1=CC=C1[C@@]2(C)CC[C@@]2(C)[C@@H]3C[C@](C)(C(=O)OCc4ccccc4)CC[C@]3(C)CC[C@]12C	-	ELISA / antigen	11.5 µM
C=C1[C@H](CO)[C@@H](O)C[C@@H]1n1cnc2c(=O)[nH]c(N)nc21	-	-	0.00375 µM
CC1=C(O)C(=O)C=C2C1=CC=C1[C@@]2(C)CC[C@@]2(C)[C@@H]3C[C@](C)(C(=O)NC(C)C)CC[C@]3(C)CC[C@]12C	-	ELISA / antigen	17.2 µM
CCC(C)CCC[C@H](C)CCN1C[C@H](O)[C@@H](O)[C@H](O)[C@H]1CO	-	-	30–100 µM
COC(=O)[C@H](C)NP(=O)(OC[C@@H]1CC[C@H](n2cnc3c(N)ncnc32)C1)Oc1ccccc1	-	-	5 µM
Nc1nc2c(ncn2COCCO)c(=O)[nH]1	-	-	>100 µM

For reference, 2 entries again:

compound | strain | read by | result
Nc1ncnc2c1ncn2C[C@@H](CF)OCP(=O)(O)O | - | hybridisation | 1.2 µM
CC1=C(O)C(=O)C=C2C1=CC=C1[C@@]2(C)CC[C@@]2(C)[C@@H]3C[C@](C)(C(=O)NC(C)C)CC[C@]3(C)CC[C@]12C | - | ELISA / antigen | 17.2 µM